From article PMC7971878, “ADAM17 is an essential attachment factor for classical swine fever virus” (2021)

Molecular target: pig ADAM17 (a disintegrin and metalloproteinase 17), endogenous in PK15 cells (pig (endogenous in PK15)) (UniProt O77636)
Test: flow cytometry on cells

Question: Which percent decrease of binding with 25 mM 1,10-phenanthroline does the source give for “CSFV E2 extracellular domain fused with Fc tag at the C-terminus (sE2-Fc) (Fc fusion)” here?
Answer: 74%
